Measured values from several laboratories, pooled; numbers as filed in NIAID ChemDB.

Common to all: tests in culture; agent: Hepatitis B virus; read-out: EC50

Two numbers with a dash give a range or band. Blank or dashed fields: not listed here. ECn: concentration that inhibits the pathogen or its effect by n%. Rows are shuffled and stem from different studies.

| structure | strain | cell line | read by | result |
|---|---|---|---|---|
| CC1c2cc(C(=O)O)c(=O)n(C3CC3)c2-c2cc(Cl)c(OCC(F)F)cc2S1(=O)=O | - | Primary human hepatocytes | antigen / visual reading / absorbance | 0.1–0.5 µM |
| COC(=O)C1=C(CN2CC(F)(F)[C@@H]3[C@H]2CON3C[C@H](OC)C(C)(C)C(=O)O)NC(c2nc(C)cs2)=N[C@H]1c1ccc(F)c(F)c1C | - | HepG2.2.15 | PCR | 0.025 µM |
| COc1nc(N)nc2c1ncn2[C@H]1CO[C@@H](CO)O1 | Wild | AD38 | - | 33.4 µM |
| Nc1nc(=O)n(C2CC[C@@H](CO)O2)cc1[N+](=O)[O-] | - | HepG2 | - | >10 µM |
| COc1ccc(-n2c(C(=O)NCc3ccnnc3)c3n(c2=O)CCN(C(=O)c2ccc(Cl)c(Cl)c2)C3)cc1 | - | HepG2.117 | PCR | >5 µM |
| O=C(NC1CC2(C1)CC(c1nc3cc(Cl)ccc3o1)C2)C1CCS(=O)(=O)CC1 | - | Primary human hepatocytes | luminescence | 5.23 µg/mL |
| COCCCOc1cc2c(cc1Cl)-c1c(cc(C(=O)O)c(=O)n1C1CCC1)C(C)S2 | - | Primary human hepatocytes | antigen / visual reading / absorbance | 0.05–0.1 µM |
| COC(=O)C1=C(CN2CC(F)(F)[C@H]3[C@@H]2CCN3CC[C@](C)(O)C(=O)O)NC(c2nccs2)=N[C@H]1c1ccc(F)c(F)c1C | - | HepG2.2.15 | PCR | 0.034 µM |
| Cc1cn(C[C@H]2C[C@H]2CO)c(=O)[nH]c1=O | - | 2.2.15 | - | >10 µM |
| CC1Sc2cc(O)c(Cl)cc2-c2c1cc(C(=O)O)c(=O)n2C1CC1 | - | Primary human hepatocytes | antigen / visual reading / absorbance | >0.5 µM |
| COc1ccc(CN2CCCCn3c(c4n(c3=O)CCN(C(=O)c3ccc(Br)c(Cl)c3)C4)C2=O)cc1 | - | HepG2.117 | PCR | 0.5–5 µM |
| CCOc1cc2c(cc1Cl)-c1c(cc(C(=O)O)c(=O)n1C1CC1)C(C)S2(=O)=O | - | Primary human hepatocytes | antigen / visual reading / absorbance | 0.05–0.1 µM |
| CCOC(=O)C1=C(CN2CC(F)(F)[C@H]3[C@@H]2CON3C[C@H](O)C(C)(C)C(=O)O)NC(c2nc(C)cs2)=N[C@H]1c1cccc(F)c1C | - | HepG2.2.15 | PCR | 0.0125 µM |
| N#Cc1cc(C(=O)N2CCn3c(c(C(=O)NCc4ccccc4-c4ncccn4)n(-c4ccc(-n5cccn5)cc4)c3=O)C2)ccc1Br | - | HepG2.117 | PCR | 0.1–0.5 µM |
| CN1c2cc3c(cc2NC(c2ccc(C(=O)O)cc2)c2ccccc21)C(C)(C)CCC3(C)C | Genotype D | HepG2-NTCPsec+ | visual reading / absorbance | 11.68 µM |
| CN1[C@H](C(=O)Nc2ccc(F)c(Cl)c2)C[C@H](c2ncc(-c3cn(C)cn3)s2)NS1(=O)=O | Genotype D | HepG2-NTCP | ELISA / antigen | 0.719 µM |
| Nc1cn([C@H]2C[C@H](O)[C@@H](CO)O2)c(=O)nc1N | - | HepG2 | - | >10 µM |
| Nc1nc2c(ncn2C[C@H]2C[C@H]2[C@H](O)CO)c(=O)[nH]1 | - | 2.2.15 | - | >10 µM |
| CCOC(=O)C1=C(CN2CC(F)(F)[C@@H]3[C@H]2CON3C[C@@H](F)C(C)(C)C(=O)O)NC(c2nccs2)=N[C@H]1c1ccc(F)cc1Cl | - | HepG2.2.15 | PCR | 0.00095 µM |
| COCCOc1cc2c(cc1Cl)-c1c(cc(C(=O)O)c(=O)n1C1CC1)C(C)S2(=O)=O | - | Primary human hepatocytes | antigen / visual reading / absorbance | >0.5 µM |
| Nc1nc(=O)n([C@@H]2C[C@H](O)[C@@H](CO)O2)cc1[N+](=O)[O-] | - | HepG2 | - | 10 µM |
| CCOC(=O)[C@H](C)NP(=O)(OC[C@@H]1OC[C@H](n2cnc3c(OC)nc(N)nc32)O1)Oc1ccccc1 | Wild | AD38 | - | 0.2 µM |
| O=C(NCc1ccccc1)c1c2n(c(=O)n1-c1ccc(OC3CC3)cc1)CCN(C(=O)c1cc(Cl)c(Br)cc1F)C2 | - | HepG2.117 | PCR | >0.5 µM |
| Nc1ccn([C@@H]2CS[C@H](CO)O2)c(=O)n1 | Genotype D | HepG2 2.2.15 | PCR | 0.02 µg/mL |
| CO[C@@H]1CN(Cc2ccccc2)C(=O)c2c3n(c(=O)n2C1)CCN(C(=O)c1ccc(Br)c(Cl)c1)C3 | - | HepG2.117 | PCR | 0.5–5 µM |
| Nc1nc(N)c2ncn([C@H]3CO[C@@H](CO)O3)c2n1 | Wild | AD38 | - | 12 µM |
| CCOC(=O)C1=C(CN2CC(F)(F)[C@@H]3[C@H]2CON3C[C@H](OC)C(C)(C)C(=O)O)NC(c2nccs2)=N[C@H]1c1ccc(F)c(F)c1F | - | HepG2.2.15 | PCR | 0.058 µM |
| Cc1cn(C[C@H]2C[C@H]2[C@H](O)CO)c(=O)[nH]c1=O | - | 2.2.15 | - | >10 µM |
| COCCCOc1cc2c(cc1N1CCCC1=O)-c1c(cc(C(=O)O)c(=O)n1C1CC1)C(C)S2(=O)=O | - | Primary human hepatocytes | antigen / visual reading / absorbance | >0.5 µM |
| O=c1[nH]cnc2c1ncn2C[C@H]1C[C@H]1[C@H](O)CO | - | 2.2.15 | - | >10 µM |
| CS(=O)(=O)N1CC(C(=O)NC2CC3(C2)CC(c2nc4cc(Cl)ccc4o2)C3)C1 | - | Primary human hepatocytes | luminescence | 3.56 µM |
| CCOC(=O)C1=C(CN2CC(F)(F)[C@@H]3[C@H]2CON3C[C@@H](F)C(C)(C)C(=O)O)NC(c2nccs2)=N[C@H]1c1ccc(F)c(F)c1Cl | - | HepG2.2.15 | PCR | 0.002 µM |
| COCCCOc1cc2c(cc1-c1cccs1)-c1c(cc(C(=O)O)c(=O)n1C1CC1)C(C)S2(=O)=O | - | Primary human hepatocytes | antigen / visual reading / absorbance | >0.05 µM |
| Nc1cn([C@@H]2CC[C@@H](CO)O2)c(=O)[nH]c1=O | - | HepG2 | - | >10 µM |
| CN(Cc1ccccc1)C(=O)c1c2n(c(=O)n1-c1ccccc1)CCN(C(=O)c1ccc(Br)c(Cl)c1)C2 | - | HepG2.117 | PCR | 0.5–5 µM |
| COCCn1cc(-c2cc3c(cc2Cl)-c2c(cc(C(=O)O)c(=O)n2C2CC2)C(C)S3(=O)=O)cn1 | - | Primary human hepatocytes | antigen / visual reading / absorbance | 0.1–0.5 µM |

The last 2 rows once more:

structure,strain,cell line,read by,result
CN(Cc1ccccc1)C(=O)c1c2n(c(=O)n1-c1ccccc1)CCN(C(=O)c1ccc(Br)c(Cl)c1)C2,-,HepG2.117,PCR,0.5–5 µM
COCCn1cc(-c2cc3c(cc2Cl)-c2c(cc(C(=O)O)c(=O)n2C2CC2)C(C)S3(=O)=O)cn1,-,Primary human hepatocytes,antigen / visual reading / absorbance,0.1–0.5 µM